In ChEMBL document CHEMBL5385871, “Application and synthesis of thiazole ring in clinically approved drugs” (Eur J Med Chem, 2023):

System: Staphylococcus aureus
Experiment: Antibacterial activity against Staphylococcus aureus N133 infected in mouse assessed as bacterial growth reduction

CC(=O)O.CCCO/N=C(\C(=O)N[C@@H]1C(=O)N2C(C(=O)[O-])=C(Sc3nc(-c4cc[n+](C)cc4)cs3)CS[C@H]12)c1csc(NP(=O)(O)O)n1
ED50: 1.6 mg/kg
